Anti-infective test results gathered from many reports (values: NIAID ChemDB through PubChem).

Common to all: tests in culture; organism: Plasmodium falciparum; endpoint: EC50

Blank or dashed fields: not listed here. ECn is the concentration giving n% inhibition of infection, replication or growth. Neighbouring rows are from separate reports.

compound	conditions	cell line	method	strain	mutations	value
C=C(C)C1CC[C@]2(C(=O)O)CC[C@@]3(C)[C@]4(C)CC[C@H]5C(C)(C)[C@@H](OC(=O)/C=C\c6ccc(O)cc6)CC[C@]5(C)[C@H]4CC[C@]3(C)[C@@H]12			LDH	D10		10.4 µM
O=C1c2ccccc2NC(c2ccc(Br)cc2)N1c1ccco1			luciferase	3D7		>20 µM
O=C(Cn1ccnc1[N+](=O)[O-])NCc1ccccc1				K1		0.125 µM
CCCO/C(=N/NC(=O)OCC)C(C)(O)c1ccc2ccccc2c1			hypoxanthine uptake / radiometric	3D7		0.6 µM
CCN(CC)CCN1C(=O)c2ccccc2NC1c1cccc(F)c1			luciferase	3D7		>10 µM
CCOC(C)=O		Human dermal fibroblasts	MTT	W2	CQ-resistant	58.3 µg/mL
Cc1c(O)c2ccccc2c2c1sc(NCCCN(C)C)[n+]2C			hypoxanthine uptake	Dd2		0.25 µM
CC(=O)O[C@H]1CC2C(C3CC[C@H](C(C)CCCN(CCCNc4ccnc5cc(Cl)ccc45)CCCC(C)[C@H]4CCC5C6C(C[C@H](OC(C)=O)[C@@]54C)[C@@]4(C)CC[C@@H](NC(=O)OC(C)(C)C)C[C@H]4C[C@H]6OC(C)=O)[C@]31C)[C@H](OC(C)=O)C[C@@H]1C[C@H](NC(=O)OC(C)(C)C)CC[C@]21C			SYBR Green	D6		0.369 µM
CCOC(=O)N/N=C(/OCC)C(O)(CC)c1ccc(Cl)c(Cl)c1			hypoxanthine uptake / radiometric	3D7		2.9 µM
CCN(CC)CCCC(C)Nc1ccnc2cc(Cl)ccc12			LDH / absorbance	Dd2		0.1235 µM
NCCSC[C@H](N)C(=O)N(O)C1C[C@@H](C(N)=O)N(C(=O)CCc2cn(-c3ccccc3)nc2-c2ccccc2)C1	96 h	Red blood cells	flow cytometry	3D7		29.5 µM
CN1CCN(CCCN2CC3(N4CCCCC4)CC(c4ccccc4)C2C(c2ccccc2)C3)CC1		human red blood cells		K1		0.11 µM
O=C(/C=C/C=C/c1ccc2c(c1)OCO2)c1ccc(Cl)cc1			SYBR Green / fluorescence	INDO		64 µM
Cc1c(-c2ccc(-c3ccc(OC(C)(C)C)cc3)nc2)[nH]c2ccccc2c1=O			SYBR Green	TM902CB		0.156 µM
c1ccc(C2CC3(N4CCCCC4)CC(c4ccccc4)C2N(CCCN2CCCCC2)C3)cc1		human red blood cells		K1		0.12 µM
COc1ccc(/C=C/C=C/C(=O)c2ccc(OC)cc2)cc1			SYBR Green / fluorescence	INDO		25 µM
CCN(CC)CCCC(C)Nc1ccnc2cc(Cl)ccc12			SYBR Green / fluorescence	KAE678R-1	KAE678-resistant pfatp4 G223R	0.0124 µM
C=C(C)C1CC[C@]2(C(=O)O)CC[C@@]3(C)[C@]4(C)CC[C@H]5C(C)(C)[C@@H](OC(=O)/C=C/c6ccc(O)cc6)CC[C@]5(C)[C@H]4CC[C@]3(C)[C@@H]12			LDH	D10		15.3 µM
CCC(C)(C(=O)Nc1cc(C(F)(F)F)ccc1-n1cncn1)c1ccccc1				3D7		0.066 µM
CCN(CC)CCCC(C)Nc1ccnc2cc(Cl)ccc12			LDH	D10		0.02 µM
CN1CCC(N(C)C(=O)c2c[n+]3c(cn2)CN=C3c2ccc(C(F)(F)F)cc2)CC1			SYBR Green			>10 µM
COc1ccc(CCn2c(N)c(-c3nc4ccccc4[nH]3)c3nc(C#N)c(C#N)nc32)cc1OC		Erythrocytes	hypoxanthine uptake / radiometric	NF54		0.25 µM
O=C1C(=O)c2ccccc2C(O)=C1C1CCC(c2ccc(Cl)cc2)CC1		RBC	flow cytometry	W2		0.0012 µM
C#[N+][C@@H]1C2C([C@@]3(C)CCC(C(C)(C)Cl)O3)CC[C@](C)([N+]#C)C2CC[C@@]1(C)O			SYBR Green	Dd2		0.0046 µM
COc1cc(OC)c(OC)cc1/C=C/C(=O)c1ccc(Cl)cc1			SYBR Green / fluorescence	INDO		10 µM
CCOc1ccc(F)cc1C1(O)c2cc(Cl)ccc2NC1N				3D7		0.028 µM
COc1ccc(/C=C/C=C/C(=O)c2ccc(Cl)cc2)cc1OC			SYBR Green / fluorescence	Dd2		25 µM
CCN(CC)CCCC(C)Nc1ccnc2cc(Cl)ccc12		human red blood cells		K1		0.15 µM
C[C@H]1Cc2c([nH]c3cc(Cl)c(F)cc23)[C@@]2(N1)C(=O)Nc1ccc(Cl)cc12			SYBR Green / fluorescence	KAE609R-1	KAE609-resistant I398D/P990R/D1247Y	0.0254 µM
CCN(CC)CCN1C(=O)c2ccccc2NC1c1ccc(N(C)C)cc1			luciferase	3D7		2.08 µM
O=C(/C=C/C=C/c1ccc2c(c1)OCO2)c1ccc(Br)cc1			SYBR Green / fluorescence	INDO		73 µM
CN(C)CCn1c(N)c(-c2nc3ccccc3[nH]2)c2nc(C#N)c(C#N)nc21		Erythrocytes	hypoxanthine uptake / radiometric	NF54		0.14 µM
CCN(CC)CCN1C(=O)c2ccccc2NC1c1cc(OC)c(OC)c(OC)c1			luciferase	3D7		>20 µM
CCOC(=O)N/N=C(/OCC)C(C)(O)c1ccc2ccccc2c1			hypoxanthine uptake / radiometric	3D7		2 µM
CCN(CC)CCCC(C)Nc1ccnc2cc(Cl)ccc12		Human dermal fibroblasts	MTT	D10		0.009 µg/mL
CO/C(=N/NC(=O)OC(C)(C)C)C(C)(O)c1ccc(Cl)c(Cl)c1			hypoxanthine uptake / radiometric	3D7		2.5 µM
CNC[C@@H](Cc1ccc2ccccc2c1)NC[C@H](Cc1ccc2ccccc2c1)NCC1(c2ccccc2)CC1				3D7		0.02 µg/mL
NCCCC[C@H](N)C(=O)N(O)C1C[C@@H](C(N)=O)N(C(=O)c2ccccc2-c2ncc(-c3ccccc3)o2)C1	48 h	Red blood cells	flow cytometry	3D7		518 µM
CN1CCN(CC(=O)NC2CC3(N4CCN(C)CC4)CC(c4ccccc4)C2C(c2ccccc2)C3)CC1		human red blood cells		K1		0.62 µM
N#Cc1nc2c(-c3nc4ccccc4[nH]3)c(N)n(CCCN3CCOCC3)c2nc1C#N		Erythrocytes	hypoxanthine uptake / radiometric	NF54		0.28 µM